The other results are listed elsewhere or left out. Env chains of viruses from a treatment-interruption trial, translated from the printed DNA. IC50 / IC80 of two broadly neutralizing antibodies; lower = more sensitive virus; >50 µg/ml means not reached and <0.001 µg/ml is below the lowest dose. No active / inactive call.
B1: HIV-1 Env, reservoir clone (protein)
chain: MRVKGIRRNYQHWWRGDIWRWGMMLLGMLMICSATGSLWVTVYYGVPVWKEATTTLFCASDAKAYDTEAHNVWATHACVPTDPNPQEVPLVNVTENFNMWKNNMVEQMHEDIISLWDQSLKPCVKLTPLCVTLHCTEIGTNATNNSSHNPTPTTNSSTSPTPMGEIKNCSFNVTTNRRDKVQKTYAFFYNMDIKQIAEEDNTSYILTSCNTSVITQACPKVSFEPIPIHYCAPAGFAILKCNDTNFNGTGPCKNVTTVQCTHGIKPVVSTQLLLNGSLARGEVMIRSENISNNAKIIIVQLKEPVEINCTRPNNNTRKSITIGPGRAFFGTDIIGDIRQAHCNISREKWNYTLYQISEKLRSHFVNKTIVFNQSSGGDPEIVMHSFNCGGEFFYCDTSKLFNSTWHTNSTANNTGDSSTITLPCRIKQIVNMWQEVGKAMYAPPIKGPIRCSSKITGVLLTRDGGTNNTNTTETFRPAGGDMRDNWRSELYKYKVVQIEPLGIAPTQAKRRVVQRDKRAVGIGALFLGFLGTAGSTMGAASITLTVQARNLLSGIVQQQNNLLRAIEAQQHLLQLTVWGIKQLQARVLAVESYLKDQQLLGIWGCSGKLICTTAVPWNNSWSNKSLDYIWNNMTWMEWEREIDNYTEYIYDLLEASQNQQEKNEQELLALDKWASLWSWFSITQWLWYIKLFLIIVGGLIGLRIVFAVFSIVNRVRQGYSPLSLQTLLPAQRGPDRPEGIEEEDGEQDRGRSIRLVDGFLALFWDDLRSLCLFSYHRLRDLLLIVTRIVELLGRRGWETLKYCWNLLQYWGQELKKSAVSLFNFSAIAVAEGTDRVIEVVQRIWRAIIHIPRRIRQGLEGALL
B2: HIV-1 Env, reservoir clone (protein)
chain: MKVRGTKMNWQHLWWRWGTMLLGMLMICKATEEKWVTVYYGVPVWKEATTTLFCASDAKAYEKEAHNVWATHACVPTDPSPQEVVLENVTENFNMWKNNMVEQMHEDIISLWDQSLKPCVKLTPLCVTLNCTDYTNSNSTNHTNSNSSSPTPTAGGEIKNCSFNITTNIRDKIKKEHALFYSLDVVQIDINDNTSYRLISCNTSVITQACPKTTFEPIPIYYCAPAGFAILKCNNKTFDGKGPCKNVSTVQCTHGIRPVVSTQLLLNGSLAEKEIVIRSDNFSDNTKNIIVQLKDPVVINCTRPNNNTRKGIHIGPGRAFYATGKVIGDIRQAYCNISKEEWNKTLGQIVKKLGAQFGNKTTMIFNQSSGGDPEIVTHSFNCGGEFFYCNTSALFNSTWSSNDGNGTWNKTNSTETNSTEIILQCRIKQIVNMWQEVGKAMYAPPIKGPIRCSSNITGLILTRDGGNNTGNNSETFRPAGGNMRDNWRSELYKYKIVKIEPLGIAPTKAKRRTVQREKRAVTMGAMFLGFLGAAGSTMGAASLTLTVQARQLLSGIVQQQNNLLRAIEAQQHLLQLTVWGIKQLQARVLAVERYLADQRFLGIWGCSGKLICTTTVPWNNSWSNKSLDSIWNNMTWMQWEKEIENYTGEIYNLIEQAQNQQEQNERELLELDKWASLWNWFDISNWLWYIKIFIMIVGGLIGLRIVFAVLSIVNRVRQGYSPLSLQTLLPTPRGPDRPEGIEGEGGERDRDTSIRLVDGFLALFWDDLRNLCLFSYRHLRDLLLIAARIVELLGLRGWEILKYLWNLLLYWSQELKNSAISLLDATAIAVAEGTDRIIEAVRRFCRGVLHIPRRIRQGFERALQ
B3: HIV-1 Env, reservoir clone (protein)
chain: MKVKGTRMNWQHLWRWGTLMLGLVIICNASNTNLWVTVYYGVPAWEDADTTLFCASDAKAYSTEKHNVWATHACVPTDPNPQEISLPNVTENFDMWKNNMVEQMHEDIISLWDESLKPCVKLTPLCVTLTCSDINITNSSNTTTTNGNNSMVDPEEIKNCTFNMTTEIIDKKKEEYALFYKLDIVQINNGNDSKDYRLINCNVSTIKQACPKVSFEPIPIHYCAPAGFAILKCKDKNFNGTGPCKNVSTVQCTHGIKPVVSTQLLLNGSLAEEDIVIRTKNITDNGNNIIVHLNESITINCTRPNNNTRKSIHLGQGQAFYATGAIIGDIRQAHCNVSGSQWINTIKRVAGKLKGVFSKNVTFNSSAGGDLEITTHSFNCGGEFFYCNTSNLFNSSILTSNNTNENITLPCKIRQIVRMWQTVGQAMYAPPIAGSIICTSNITGLILTRDGGSNETNGTDTFRPGGGNMKDNWRSELYKYKVVKIKPLGIAPTKARRRVVGREKRAIGVLGAALLGFLGTAGSTMGAASITLTVQVRQLLSGIVQQQSNLLRAIEAQQHLLQLTVWGIKQLQARVLAVERYLRDQQLLGIWGCSGKLICTTNVPWNASWSNKSYEEIWDNMTWIQWDREIDNYTQLIYSLIEESQNQQEKNEQDLLALDKWTSLWSWFDISNWLWYIRIFIIIVGGLIGLRIVFAVLSIVNRVRQGYSPLSLQTLLPHPPEADRPGEIEEGGGEQGRTRSIRLVNGFLALAWDDLRNLCLFLYHHLRDFILTAARTVETLGHRGWEILKYLGNLLCYWGQELQNSVISLLDTTAIAVGNWTDRFIELGQRVVRAVLHIPRRIRQRLERALL
B4: HIV-1 Env, reservoir clone (protein)
chain: MKVKGTRMNWQHLWRWGTLMLGLVIICNASNTNLWVTVYYGVPAWEDADTTLFCASDAKAYSTEKHNVWATHACVPTDPNPQEISLPNVTENFDMWKNNMVEQMHEDIISLWDESLKPCVKLTPLCVTLTCSDINITHSSNTTTTNGNNSMVDPEEIKNCTFNMTTEIIDKTKKEYALFYKLDIVQINNGNDSKNYRLINCNVSTIKQACPKVSFEPIPIHYCAPAGFAILKCKDKNFNGTGPCKNVSTVQCTHGIKPVVSTQLLLNGSLAEEDIVIRTKNITDNGNNIIVHLNESITINCTRPNNNTRKSIHLGQGQAFYATGAIIGDIRQAHCNVSGSQWINMIKRVAGKLKGVFSKNVTFNSSAGGDLEITTHSFNCGGEFFYCNTSNLFNSSILTSNNTNENITLPCKIRQIVRMWQTVGQAMYAPPIAGSIICTSNITGLILTRDGGSNKTNGTDTFRPGGGNMKDNWRSELYKYKVVKIKPLGIAPTKARRRVVGREKRAIGVLGAALLGFLGTAGSTMGAASITLTVQVRQLLSGIVQQQSNLLRAIEAQQHLLQLTVWGIKQLQARVLAVERYLRDQQLLGIWGCSGKLICTTNVPWNASWSNKSYEEIWDNMTWIQWDREIDNYTQLIYSLIEESQNQQEKNEQDLLALDKWTSLWSWFDISNWLWYIRIFIIIVGGLIGLRIVFAVLSIVNRVRQGYSPLSLQTLLPHPPEADRPGEIEEGGGEQGRTRSIRLVNGFLALAWDDLRNLCLFLYHHLRDFILTAARTVETLGHRGWEILKYLGNLLCYWGQELKNSVINLLDTTAIAVGNWTDRFIELGQRVVRAVLHIPRRIRQGLERAWL
B5: HIV-1 Env, reservoir clone (protein)
chain: MKVKGTRMNWQHLWRWGTLMLGLVIICNASNTNLWVTVYYGVPAWEDADTTLFCASDAKAYSTEKHNVWATHACVPTDPNPQEISLPNVTENFDMWKNNMVEQMHEDIISLWDESLKPCVKLTPLCVTLTCSDINITNSSNTTTTNGNNSMVDPEEIKNCTFNMTTEIIDKKKKEYALFYKLDIVQINNGNDSKDYRLINCNVSTIKQACPKVSFEPIPIHYCAPAGFAILKCKDKNFNGTGPCKNVSTVQCTHGIKPVVSTQLLLNGSLAEEDIVIRTKNITDNGNNIIVHLNESITINCTRPNNNTRKSIHLGQGQAFYATGAIIGDIRQAHCNVSGSQWINMIKRVAGKLKGVFSKNVTFNSSAGGDLEITTHSFNCGGEFFYCNTSNLFNSSILTSNNTNENITLPCKIRQIVRMWQTVGQAMYAPPIAGSIICTSNITGLILTRDGGSNETNGTDTFRPGGGNMKDNWRSELYKYKVVKIKPLGIAPTKARRRVVGREKRAIGVLGAALLGFLGTAGSTMGAASITLTVQVRQLLSGIVQQQSNLLRAIEAQQHLLQLTVWGIKQLQARVLAVERYLRDQQLLGIWGCSGKLICTTNVPWNASWSNKSYEEIWDNMTWIQWDREIDNYTQLIYSLIEESQNQQEKNEQDLLALDKWTSLWSWFDISNWLWYIRIFIIIVGGLIGLRIVFAVLSIVNRVRQGYSPLSLQTLLPHPPEADRPGEIEEGGGEQGRTRSIRLVNGFLALAWDDLRNLCLFLYHHLRDFILTAARTVETLGHRGWEILKYLGNLLCYWGQELKNSVISLLDTTAIAVGNWTDRFIELGQRVVRAVLHIPRRIRQGLERALL
B6: HIV-1 Env, reservoir clone (protein)
chain: MRVKGIRKSYQPLWVGGILLLGMLMLCSTTEQLWVTVYYGVPVWKEATTTLFCASDAKGYDTEAHNVWATHACVPTDPNPQELKLENVTENFNMWKNDMVQQMHEDIISLWDQSIKPCVKLTPLCVTLNCSGVNINNTNANTTSNNTSWREMKEEIKNCSFNHTDTRNKMRKDYALFNSLDVIQIDSSDNNTSYMLESCNTSVITQACPKISFEPIPIHYCAPAGFAILKCNDKNFNGTGPCKNVSLVQCTHGIKPVVSTQLLLNGSLAEEDIVIRSENFTNNAKTIIVQLNSSIEITCIRPNNNTRKSIHLGPGAAFYATGDIIGDIRKAYCNISKVKWENTLDKIAKKLQGQFGENKTIVFNHSSGGDPEIVHHSFNCGGEFFYCNTTKLFSWNSTGHGNNASKNSNVNITLTCRIKQIINRWQQVGRAIYAPPIRGSISCSSTITGLLLTRDGGDSNSTDNNTETFRPGGGDMRDNWRSELYKYKVVSIEPLGIAPTRARRRVVQREKRAVGMIGAMFLGFLGAAGSTMGAASVALTVQARQLLSGIVQQQNNLLRAIEAQQHMLQLTVWGIKQLQARVLAVERYLKDQQLLGIWGCSGKLICTTNVPWNISWSNRNLKDIWGNMTWMQWEREIDNYTGLIYSLLTESQTQQEQNEKELLELDKWASLWNWFDISNWLWYIKIFIMIVGGLVGLRIIFTILNVVNRVRKGYSPLSFQTRLPATRGPDRPEETEEEGGGRDRGRSETLVTGFLALIWDDLRSLCLFIYHRLRDLLLIATRSVELLGRRGWELLKYLWNLLQYWGQELRNSAVSLLNATAIAVAEGTDRIIEVAQRIGRAIIHIPRRIRQGAERALL

These binders were tested against antibody 10-1074 (assay: neutralization IC50; higher = virus less sensitive to the antibody).
Procedure: (§1)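 Pseudovirus bearing the Env chain mixed with antibody, from 50 µg/ml in fivefold dilutions, on TZM-bl reporter cells, in duplicate.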

Row | Binder | neutralization IC50
1 | B1 | 0.001 µg/mL
2 | B2 | 0.005 µg/mL
3 | B3 | 0.007 µg/mL
4 | B4 | 0.014 µg/mL
5 | B5 | 0.009 µg/mL
6 | B6 | 0.007 µg/mL

Each binder was assayed against antibody 3BNC117 in the same assay as above.
Procedure: as §1

Row | Binder | neutralization IC50
7 | B1 | 0.023 µg/mL
8 | B2 | 0.101 µg/mL
9 | B3 | 0.298 µg/mL
10 | B4 | 0.101 µg/mL
11 | B5 | 0.335 µg/mL
12 | B6 | 0.087 µg/mL

Each binder was assayed against antibody 10-1074 (assay: neutralization IC80; higher = virus less sensitive to the antibody).
Procedure: as §1

Row | Binder | neutralization IC80
13 | B1 | 0.008 µg/mL
14 | B2 | 0.018 µg/mL
15 | B3 | 0.036 µg/mL
16 | B4 | 0.043 µg/mL
17 | B5 | 0.028 µg/mL
18 | B6 | 0.021 µg/mL

Each binder was assayed against antibody 3BNC117 in the same assay as above.
Procedure: as §1

Row | Binder | neutralization IC80
19 | B1 | 0.097 µg/mL
20 | B2 | 0.355 µg/mL
21 | B3 | 1.16 µg/mL
22 | B4 | 0.437 µg/mL
23 | B5 | 2.13 µg/mL
24 | B6 | 0.337 µg/mL

Source: the supplement of paper PMC12637763
